Source: PubChem BioAssay AID1259414 (Drosophila RNAi Screening Center, 2018)
The screen tested about 24,000 reagents; this is an unselected part of those that have a named target and a result. In the full data, about 1,210 (5%) got an active call. 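Inactive calls also include excluded dsRNAs with several or no targets, genes unexpressed in JW18, and well A1, regardless of score.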 The numbers tell different reagents against one gene apart. Names joined by + are all predicted targets of the reagent. Reagent sequences are not shown.

- Purpose: 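Host factors increasing or decreasing Wolbachia levels in cultured fly cells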 (primary screen)
- Cell system: Drosophila JW18 cells infected with Wolbachia
- Reagent: long dsRNA against Drosophila genes, 0.25 µg dsRNA per well of a 384-well plate
- Duration: 5 days
- Treatment: cells persistently infected with Wolbachia before knock-down; no added drug
- Measured: 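Imaged fluorescence in situ signal for Wolbachia 23S rRNA per DAPI-counted host cell, given as a robust z-score within each plate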
- Scale: Wolbachia per cell robust z: higher = more Wolbachia per host cell than the plate typical
- Active means: 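Hit when robust z is 1.5 or more, or -1.5 or less, in at least two of three replicates; excludes dsRNAs with several or no targets, genes not expressed in JW18 and well A1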

| gene | dsRNA no. | Wolbachia per cell robust z, rep 1 | Wolbachia per cell robust z, rep 2 | Wolbachia per cell robust z, rep 3 | Call |
| --- | --- | --- | --- | --- | --- |
| Polr1B | 1 | 0.452 | -0.648 | -0.0478 | inactive |
| Grl62a | 1 | 0.0208 | 0.196 | -0.00303 | inactive |
| CG9782 | 1 | 0.758 | 0.516 | -0.482 | inactive |
| CG9782 | 2 | -0.847 | 1.2 | 0.796 | inactive |
| CG9782 | 3 | 0.236 | -0.224 | -0.136 | inactive |
| CG13064 | 1 | 1.47 | -0.993 | 1.21 | inactive |
| Mink | 1 | -0.782 | -1.35 | -1.83 | inactive |
| CG9737 | 1 | -1.24 | 0.319 | 0.438 | inactive |
| RpL22 + lncRNA:CR42491 | 1 | 1.66 | 7.95 | 5.51 | inactive |
| CG13244 | 1 | -0.62 | -0.0188 | -1.36 | inactive |
| ClpP | 1 | 0.518 | -0.641 | 1.03 | inactive |
| Eip63F-1 + asRNA:Eig63F-2 | 1 | -1.25 | -1.41 | -1.28 | inactive |
| PPO3 | 1 | 0.04 | 0.019 | -0.639 | inactive |
| PPO3 | 2 | 0.478 | -0.557 | -1.68 | inactive |
| RpL14 | 1 | 1.07 | 0.533 | 2.36 | inactive |
| CG2121 | 1 | -0.573 | 0.352 | -0.247 | inactive |
| CG2121 | 2 | 0.616 | -0.329 | -0.706 | inactive |
| CG12194 | 1 | -0.407 | 0.104 | 0.335 | inactive |
| CG12194 | 2 | -0.281 | -0.278 | 0.144 | inactive |
| Coq4 + frc | 1 | 0.223 | 0.982 | 0.983 | inactive |
| Coq4 + frc | 2 | -1.56 | -3.33 | -2.64 | inactive |
| Takl2 | 1 | 0.158 | 0.707 | 1.33 | inactive |
| Cpr97Eb | 1 | 0.302 | -3.03 | -0.132 | inactive |
| TwdlM | 1 | -1.55 | 0.718 | -1.11 | inactive |
| CG30060 | 1 | 0.387 | -0.409 | 0.566 | inactive |
| Desat1 | 1 | 1.68 | 1.97 | 2.61 | active |
| Desat1 | 2 | 2.01 | 4.56 | 4.68 | active |
| Desat1 | 3 | -0.452 | 0.241 | 1.09 | inactive |
| NimC3 | 1 | 0.388 | -0.0226 | 0.204 | inactive |
| NimC3 | 2 | -0.819 | 0.558 | 0.2 | inactive |
| NimC3 | 3 | 0.023 | -0.000813 | -0.432 | inactive |
| CG16957 | 1 | 1.08 | -0.212 | -3.84 | inactive |
| fz4 | 1 | -5.49 | -0.0687 | -2.28 | active |
| Fim | 1 | 0.317 | 0.33 | 0.774 | inactive |
| mRpS35 | 1 | 0.347 | 0.838 | 0.686 | inactive |
| CG2533 | 1 | -2.64 | -2.24 | -3.22 | inactive |
| CG2533 | 2 | 0.307 | 0.427 | -1.25 | inactive |
| CG31680 | 1 | -2.16 | -1.07 | -0.468 | inactive |
| CG9192 | 1 | 0.759 | 0.408 | 0.0509 | inactive |
| Tep4 | 1 | -9.77 | -0.406 | 0.172 | inactive |
| CG11109 | 1 | -1.95 | 1.05 | -0.504 | inactive |
| boi | 1 | 0.233 | 0.639 | 0.294 | inactive |
| boi | 2 | 0.598 | 0.441 | 1.48 | inactive |
| boi | 3 | 0.437 | -0.476 | 0.423 | inactive |
| CG42233 | 1 | -1.04 | -0.417 | -0.377 | inactive |
| CG42233 | 2 | -0.793 | 0.892 | -0.452 | inactive |
| CG42233 | 3 | -1.62 | 0.322 | -0.633 | inactive |
| CG42233 | 4 | 0.408 | 0.712 | 0.734 | inactive |
| CG13437 | 1 | -4.16 | -1.8 | -2.46 | inactive |
| CG5290 | 1 | -0.48 | 0.319 | 1.15 | inactive |
| CG5290 | 2 | 0.0525 | -1.61 | 0.376 | inactive |
| CG31759 | 1 | -0.173 | -1.82 | -0.748 | inactive |
| dpn | 1 | 0.432 | 1.68 | -1.55 | inactive |
| dpn | 2 | -0.116 | 0.196 | -0.259 | inactive |
| tub | 1 | -2.02 | -0.812 | -1.1 | inactive |
| tub | 2 | 0.342 | -0.0985 | 0.531 | inactive |
| CG14013 | 1 | -5.24 | 0.133 | 1.05 | inactive |
| GstD2 | 1 | -4.66 | 0.91 | -1.57 | active |
| GstD2 | 2 | -7.37 | -0.266 | -0.404 | inactive |
| eEF1beta | 1 | 0.248 | -2 | 1.23 | inactive |
| eEF1beta | 2 | -0.793 | -3.59 | 1.83 | inactive |
| Polr3K + Tcs1 | 1 | -0.0389 | -1.3 | 0.0608 | inactive |
| CG2224 | 1 | -1.11 | -0.185 | 0.412 | inactive |
| CG2224 | 2 | 0.487 | -0.855 | -0.558 | inactive |
| Acbp6 | 1 | 0.027 | -3.3 | 1.77 | inactive |
| CG32452 | 1 | -0.361 | -0.657 | 0.135 | inactive |
| CG32452 | 2 | 0.667 | -0.974 | -0.883 | inactive |
| CG32452 | 3 | -0.522 | -0.026 | 0.685 | inactive |
| CG6833 | 1 | -0.213 | -0.229 | -1.76 | inactive |
| CG6833 | 2 | 0.778 | 1.35 | -0.873 | inactive |
| Rbp4 | 1 | -0.297 | -0.0192 | -0.644 | inactive |
| Rbp4 | 2 | -2.84 | -0.524 | 1.46 | inactive |
| CG30373 | 1 | 0.263 | 0.396 | -0.676 | inactive |
| CG30373 | 2 | 0.0247 | 0.0502 | 0.891 | inactive |
| Cp18 | 1 | -4.13 | 0.127 | -0.869 | inactive |
| CG11600 | 1 | 0.29 | 0.285 | 0.247 | inactive |
| CG11600 | 2 | 0.618 | -0.502 | -0.412 | inactive |
| CG9445 | 1 | 0.543 | -1.02 | -0.0653 | inactive |
| CG12708 + CG15646 | 1 | -0.638 | 0.481 | 0.226 | inactive |
| Burs | 1 | 0.761 | 0.188 | 1.01 | inactive |
| Raf | 1 | -0.993 | 0.5 | -2.44 | inactive |
| Raf | 2 | 0.459 | 1.18 | -1.12 | inactive |
| Raf | 3 | 0.735 | -0.521 | 0.783 | inactive |
| CG31068 | 1 | -0.0974 | 0.266 | 0.566 | inactive |
| Sec22 | 1 | -0.351 | -0.523 | -0.253 | inactive |
| Bug22 | 1 | -0.577 | -2.29 | 0.373 | inactive |
| CG8858 | 1 | 0.595 | -1.42 | 0.683 | inactive |

Limited to “Wolbachia per cell robust z, rep 3”, for 15 of the entries above:
CG13064	1.21
Mink	-1.83
CG9737	0.438
RpL22 + lncRNA:CR42491	5.51
CG13244	-1.36
ClpP	1.03
Eip63F-1 + asRNA:Eig63F-2	-1.28
PPO3 #1	-0.639
PPO3 #2	-1.68
RpL14	2.36
CG2121 #1	-0.247
CG2121 #2	-0.706
CG12194 #1	0.335
CG12194 #2	0.144
Coq4 + frc #1	0.983
